# Assay results taken from paper PMC7466129, “Solid Lipid Nanoparticles for Duodenum Targeted Oral Delivery of Tilmicosin” (Pharmaceutics, 2020).
# Experiment: Palatability feeding experiment of pig
# Format: in vivo
# Details: pigs; tilmicosin 400 mg/kg feed; decreased from about 1.4 kg/d
compound,measurement,value
"CC[C@H]1OC(=O)C[C@@H](O)[C@H](C)[C@@H](O[C@@H]2O[C@H](C)[C@@H](O)[C@H](N(C)C)[C@H]2O)[C@@H](CCN2C[C@H](C)C[C@H](C)C2)C[C@@H](C)C(=O)/C=C/C(C)=C/[C@@H]1CO[C@@H]1O[C@H](C)[C@@H](O)[C@@H](OC)[C@H]1OC [tilmicosin, Tilmicosin]",average daily feed intake during the feeding experiment,about 0.9 kg/d
